Reference: publication PMC9854868, “Structure–Activity Relationship Studies of Substitutions of Cationic Amino Acid Residues on Antimicrobial Peptides” (Antibiotics, 2022)

Experiment: CD spectrometry, α-helix content
Assay type: physicochemical
Conditions: 20 mM phosphate buffer pH 7.4 with 1% SDS, peptide 100 µM, calculated from the CD spectra

| SMILES | α-helix contents [%] |
| --- | --- |
| CC[C@H](C)[C@H](NC(=O)CN)C(=O)N[C@@H](CCCCN)C(=O)N[C@@H](CCCCN)C(=O)N[C@@H](Cc1ccccc1)C(=O)N[C@@H](CC(C)C)C(=O)N[C@@H](CCCCN)C(=O)N[C@@H](CO)C(=O)NC(C)(C)C(=O)N[C@@H](CCCCN)C(=O)N[C@@H](CCCCN)C(=O)N[C@@H](Cc1ccccc1)C(=O)N[C@H](C(=O)N[C@@H](CCCCN)C(=O)NC(C)(C)C(=O)N[C@@H](Cc1ccccc1)C(=O)N[C@@H](CCCCN)C(N)=O)C(C)C [Peptide 1] (H-GIKKFLKS[Aib]KKFVK[Aib]FK-NH2) | 26.3 |
| CC[C@H](C)[C@H](NC(=O)CN)C(=O)N[C@@H](CCCN)C(=O)N[C@@H](CCCN)C(=O)N[C@@H](Cc1ccccc1)C(=O)N[C@@H](CC(C)C)C(=O)N[C@@H](CCCN)C(=O)N[C@@H](CO)C(=O)NC(C)(C)C(=O)N[C@@H](CCCN)C(=O)N[C@@H](CCCN)C(=O)N[C@@H](Cc1ccccc1)C(=O)N[C@H](C(=O)N[C@@H](CCCN)C(=O)NC(C)(C)C(=O)N[C@@H](Cc1ccccc1)C(=O)N[C@@H](CCCN)C(N)=O)C(C)C [Peptide 2] (H-GI[Orn][Orn]FL[Orn]S[Aib][Orn][Orn]FV[Orn][Aib]F[Orn]-NH2) | 26.4 |
| CC[C@H](C)[C@H](NC(=O)CN)C(=O)N[C@@H](CCCNC(=N)N)C(=O)N[C@@H](CCCNC(=N)N)C(=O)N[C@@H](Cc1ccccc1)C(=O)N[C@@H](CC(C)C)C(=O)N[C@@H](CCCNC(=N)N)C(=O)N[C@@H](CO)C(=O)NC(C)(C)C(=O)N[C@@H](CCCNC(=N)N)C(=O)N[C@@H](CCCNC(=N)N)C(=O)N[C@@H](Cc1ccccc1)C(=O)N[C@H](C(=O)N[C@@H](CCCNC(=N)N)C(=O)NC(C)(C)C(=O)N[C@@H](Cc1ccccc1)C(=O)N[C@@H](CCCNC(=N)N)C(N)=O)C(C)C [Peptide 4] (H-GIRRFLRS[Aib]RRFVR[Aib]FR-NH2) | 18.4 |
| CC[C@H](C)[C@H](NC(=O)CN)C(=O)N[C@@H](CCN)C(=O)N[C@@H](CCN)C(=O)N[C@@H](Cc1ccccc1)C(=O)N[C@@H](CC(C)C)C(=O)N[C@@H](CCN)C(=O)N[C@@H](CO)C(=O)NC(C)(C)C(=O)N[C@@H](CCN)C(=O)N[C@@H](CCN)C(=O)N[C@@H](Cc1ccccc1)C(=O)N[C@H](C(=O)N[C@@H](CCN)C(=O)NC(C)(C)C(=O)N[C@@H](Cc1ccccc1)C(=O)N[C@@H](CCN)C(N)=O)C(C)C [Peptide 3] (H-GI[Dab][Dab]FL[Dab]S[Aib][Dab][Dab]FV[Dab][Aib]F[Dab]-NH2) | 8.9 |
| CC[C@H](C)[C@H](NC(=O)CN)C(=O)N[C@@H](Cc1c[nH]cn1)C(=O)N[C@@H](Cc1c[nH]cn1)C(=O)N[C@@H](Cc1ccccc1)C(=O)N[C@@H](CC(C)C)C(=O)N[C@@H](Cc1c[nH]cn1)C(=O)N[C@@H](CO)C(=O)NC(C)(C)C(=O)N[C@@H](Cc1c[nH]cn1)C(=O)N[C@@H](Cc1c[nH]cn1)C(=O)N[C@@H](Cc1ccccc1)C(=O)N[C@H](C(=O)N[C@@H](Cc1c[nH]cn1)C(=O)NC(C)(C)C(=O)N[C@@H](Cc1ccccc1)C(=O)N[C@@H](Cc1c[nH]cn1)C(N)=O)C(C)C [Peptide 5] (H-GIHHFLHS[Aib]HHFVH[Aib]FH-NH2) | 10.1 |

Square brackets hold non-standard residues; d marks the D form. Peptide text beside a SMILES is read from it. Orn = NCCC[C@H](N)C(=O)O; Dab = NCC[C@H](N)C(=O)O; Aib = CC(C)(N)C(=O)O
